Earlier results on 1 substance are cited in publication PMC4853472, “Trapping mammalian protein complexes in viral particles” (Nature Communications, 2016).

As usually defined, the pKd is the negative decadic logarithm of the Kd, by convention in mol/L.

pKd: −log10 of the molar value.

This series concerns the target GAG (Human immunodeficiency virus 1) (UniProt O93182).

In the case of Cyclophilin A (from UniProt P62937), the negative logarithm of the Kd (pKd) was 4.80.
